Measured values: patent publication US8188085B2, “Antifungal agents” (Merck Sharp & Dohme Corp., priority 2008, dated 2012)

By UniProt entry, the sequences of proteins in these tests, tags left out. Residues count along the entry.
UniProt O13428, 1-1897: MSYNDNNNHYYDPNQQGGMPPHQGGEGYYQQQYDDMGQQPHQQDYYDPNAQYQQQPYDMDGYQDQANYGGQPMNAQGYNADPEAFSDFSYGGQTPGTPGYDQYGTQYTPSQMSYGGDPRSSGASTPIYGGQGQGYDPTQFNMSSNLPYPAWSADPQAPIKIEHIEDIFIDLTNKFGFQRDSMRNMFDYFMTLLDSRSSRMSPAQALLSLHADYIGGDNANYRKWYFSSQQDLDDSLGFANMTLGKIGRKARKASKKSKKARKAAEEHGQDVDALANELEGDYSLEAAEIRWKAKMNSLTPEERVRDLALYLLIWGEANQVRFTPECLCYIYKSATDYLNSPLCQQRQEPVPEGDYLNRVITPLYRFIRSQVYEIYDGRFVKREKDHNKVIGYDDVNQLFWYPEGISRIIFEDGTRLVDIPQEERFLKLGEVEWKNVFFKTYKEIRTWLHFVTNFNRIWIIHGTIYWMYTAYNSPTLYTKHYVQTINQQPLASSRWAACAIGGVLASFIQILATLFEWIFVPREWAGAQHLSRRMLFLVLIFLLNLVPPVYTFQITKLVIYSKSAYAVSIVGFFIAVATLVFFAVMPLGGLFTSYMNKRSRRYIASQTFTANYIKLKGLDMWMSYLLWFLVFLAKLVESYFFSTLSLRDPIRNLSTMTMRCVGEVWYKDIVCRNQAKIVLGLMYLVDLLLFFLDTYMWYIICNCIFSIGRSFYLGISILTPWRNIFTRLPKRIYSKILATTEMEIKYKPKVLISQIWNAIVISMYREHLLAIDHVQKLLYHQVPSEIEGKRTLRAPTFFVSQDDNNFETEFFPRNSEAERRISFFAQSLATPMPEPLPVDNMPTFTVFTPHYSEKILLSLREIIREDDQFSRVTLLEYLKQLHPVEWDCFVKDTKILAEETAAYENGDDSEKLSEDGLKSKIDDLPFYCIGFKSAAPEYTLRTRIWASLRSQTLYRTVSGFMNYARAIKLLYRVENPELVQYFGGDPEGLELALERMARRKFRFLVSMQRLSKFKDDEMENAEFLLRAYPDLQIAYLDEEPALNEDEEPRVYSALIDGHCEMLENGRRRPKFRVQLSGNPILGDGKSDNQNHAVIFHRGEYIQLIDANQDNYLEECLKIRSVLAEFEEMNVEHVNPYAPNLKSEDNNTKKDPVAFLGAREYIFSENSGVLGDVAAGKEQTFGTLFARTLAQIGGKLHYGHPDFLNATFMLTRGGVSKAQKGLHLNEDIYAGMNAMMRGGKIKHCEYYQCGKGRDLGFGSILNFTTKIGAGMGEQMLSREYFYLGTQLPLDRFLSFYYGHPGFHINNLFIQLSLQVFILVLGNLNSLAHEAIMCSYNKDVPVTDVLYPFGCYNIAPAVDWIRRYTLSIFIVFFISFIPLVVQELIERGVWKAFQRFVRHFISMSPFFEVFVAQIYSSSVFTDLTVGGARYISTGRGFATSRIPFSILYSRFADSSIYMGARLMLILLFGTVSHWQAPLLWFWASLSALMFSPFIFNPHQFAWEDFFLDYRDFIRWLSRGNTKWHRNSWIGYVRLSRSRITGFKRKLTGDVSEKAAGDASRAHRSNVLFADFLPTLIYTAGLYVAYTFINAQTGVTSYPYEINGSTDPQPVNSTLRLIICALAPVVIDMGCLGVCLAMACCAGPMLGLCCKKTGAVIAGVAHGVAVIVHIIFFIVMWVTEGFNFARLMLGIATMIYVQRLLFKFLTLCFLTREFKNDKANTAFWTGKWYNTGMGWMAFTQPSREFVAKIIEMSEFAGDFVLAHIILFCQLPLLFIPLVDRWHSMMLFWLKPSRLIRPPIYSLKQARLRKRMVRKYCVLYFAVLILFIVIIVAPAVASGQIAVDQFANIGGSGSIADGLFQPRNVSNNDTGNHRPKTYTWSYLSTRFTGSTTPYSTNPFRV

Biological target: glucan synthase (GS) prepared from Candida albicans MY1055 (Candida albicans, UniProt O13428)
Assay: Glucan synthase inhibition (polymerization assay, 96-well)
Type: biochemical
Details: GS from C. albicans MY1055; 60 min incubation at 22° C.; tested form: TFA
Procedure: The in vitro evaluation of glucan synthase inhibitory activity of compounds was measured in a polymerization assay in 96-well format. Each well contained 100 μL of ^3H-UDPG at 0.5 mM (6000 to 8000 dpm/nmol), 50 mM HEPES pH 7.5 (Sigma), 10% w/v glycerol (Sigma), 1.5 mg/mL bovine serum albumin (Sigma A 9647. Lot 44H0190), 25 mM KF (Fisher), 1 mM EDTA (Gibco ULTRAPURE), 25 μM GTP-γ-S, enzyme sufficient to give 3 to 6 nmoles incorporation during the 60 min incubation at 22° C., and test compound added from wells in 3-fold serial dilutions in 100% DMSO (1 μL/well). The reaction was stopped by the addition of 100 μL of 20% trichloroacetic acid. […] 40 μL/well scintillation fluid (Packard ULTIMA GOLD TM-XR) was added and the sealed plates counted in a WALLAC BETA counter in top-counting mode at an efficiency of approximately 40%. […]
Routine analysis was performed with glucan synthase (GS) prepared from Candida albicans MY1055 by the following procedure: MY1055 was grown in 10 liters YPD medium (10 g yeast extract, 20 g tryptone, 20 g glucose per liter) with vigorous shaking at 30° C., to early stationary phase. […] Extent of breakage was assessed visually at 40× magnification. […]

## CNC(=O)c1ncnn1[C@@H]1C[C@@]23COC[C@](C)([C@@H]2CC[C@H]2C3=CC(=O)[C@@]3(C)[C@H](C(=O)O)[C@@](C)([C@H](C)C(C)C)CC[C@]23C)[C@H]1OC[C@](C)(NC)C(C)C
  Candida Albicans GS IC50: 0.018 µg/mL
